US20090215699A1, “Pharmaceutically Active Antiviral Peptides” (priority 2005, published 2009)
pIC50: −log10 of the molar value.

Columns and labels:
[1] = Viability of the infected cells (Trypan-blue staining) in the HIV-1 inhibition experiment; type: cell-based; conditions: human; days 3, 6, 9, 12 and 15, Trypan-blue staining; read-out: Viability of the cells (living cells)
Source text: Jurkat cells (species: human T-cell leukemia; special characteristics: cells are permissive for growth of T-cell trophic HIV strains; source: ATCC Cat. No. TIB 152) or PM1 cells (species: clonal derivative of human HUT 78 cells; special characteristics: cells are permissive for growth of macrophage-trophic and T-cell trophic HIV strains; source: Dr. Marvin Reitz, courtesy of the NIH AIDS Research and Reference Reagent Program Cat. No. 3038) were stimulated with Phytohemagglutinin (PHA-P, Product No. L9132 from Sigma) in a concentration of 2 μg/ml (1.5×10^6 cells/ml) and Hexadimethrine Bromide (Polybrene, Product No. H9268 from Sigma) in a concentration of 2 μg/ml (1.5×10^6 cells/ml) in RPMI 1640 medium containing 10% fetal calf serum (FCS, Pansystems GmbH) and antibiotics for 3 days.
For HIV-1 infection, 5×10^7 cells were resuspended in 500 μl culture medium without test drugs and incubated in a 50 ml blue-cap-tube at 37° C. for 5 hrs with HIV-1 high titer viral stocks. […]
(§1) Culture medium was changed and cells were split at days 3 and 7 of the experiments. Viability of the cells (Trypan-blue staining), cell counts and p24 antigen levels were determined at days 3, 6, 9, 12 and 15 of the experiments. […]

[2] = system: macrophage-trophic HIV-1Ba-L strain; type: cell-based; conditions: macrophage-trophic 1Ba-L strain
Procedure: FIG. 1: Inhibition by Peptide Seq ID NO: 28 of HIV replication in a concentration-dependent manner. PM1 cells were de novo infected with macrophage-trophic HIV-1Ba-L strain in the presence of Peptide Seq ID NO: 28. HIV replication was monitored by p24 assay as described below. Peptide Seq ID NO: 28 inhibits HIV replication in a concentration-dependent manner with IC50 (half-maximal inhibitory constant) of 10 μM.
HIV replication was measured either by p24 HIV Antigen Capture Assay Kit (ELISA; HIVAG-1 Monoclonal kit B1A011; Abbott) following the manufacturer's recommendation, or by using the Quantiplex HIV-1 RNA 3.0 Assay (bDNA) system (Chiron Diagnostics). The latter assay is a signal amplification nucleic acid probe assay (employing a sandwich nucleic acid hybridization procedure) for direct quantitation of HIV RNA in human plasma. There, in brief, HIV-1 is first concentrated from plasma by centrifugation. […] Light emission is directly proportional to the amount of HIV-1 RNA present in each sample, and results are recorded as relative light units by an appropriate analyzer. […]
as §1

[3] = system: PM1 cells; test: Cell viability (Trypan-blue staining) of PM1 cells infected with HIV-1 FE9; type: cell-based, human; conditions: day 15, HIV-1 FE9 infected PM1 cells
Procedure: FIG. 8: Inhibition by Peptide Seq ID NO: 28 of replication of the omni-resistant HIV stain FE9. PM1 cells were incubated with HIV-1 FE9 for 2 hours and subsequently HIV replication was monitored by p24 assay as described below at day d6, d9, d12 and d15. In control (DMSO) treated cells HIV-1 FE9 replication could be detected at day 12 postinfection. Cell viability as monitored by Trypan-blue staining and photometric analysis was reduced in control treated cells at day 12 reflecting the cell death by HIV.
PM1 cells were infected with an “omni-drug-resistant HIV-1” (recombinant HIV-1 NL4-3 in which the Protease gene and the 5′ part of the Reverse Transcriptase gene was replaced by the corresponding sequences from a omni-drug-resistant clinical isolate, resistant to all currently available anti-HIV drugs. Infected cells were incubated with peptide SEQ ID NO. 28 at a concentration of 8.1 μM, 12.2 μM, 16.3 μM or DMSO (control). The culture medium was changed every third day. Cell viability (Trypan-blue staining), cell counts and p24 levels were determined at day 6 and 12. At day 12 of infection, the virus replicated vigorously in untreated cultures. Numbers describe percent inhibition of HIV-1 replication as compared to control experiments. In addition, various different “types” of multiple anti-retroviral drug resistant HIV-1 strains were also tested.

In the case of CCCC[C@H](NC(=O)[C@H](CCCC)NC(=O)[C@H](CCCC)NC(=O)[C@H](CCCNC(=N)N)NC(=O)[C@H](CCCC)NC(=O)[C@H](CCCC)NC(=O)[C@H](CCCC)NC(=O)[C@@H](N)CCCNC(=N)N)C(=O)NCC(=O)N[C@@H](Cc1ccc(O)cc1)C(=O)O [Peptide Seq ID NO: 28, Arg nL nL nL Arg nL nL nL Gly Tyr], the viability [1] was 85 to 90%, the pIC50 [2] was 5.00 and the Cell viability [3] was “al cells were viable”.
